A mixed list of measured activities; the numbers were collected in NIAID ChemDB.

Common to all: whole-cell or culture tests; organism: Mycobacterium tuberculosis

ECn is the concentration giving n% inhibition of infection, replication or growth. A number after MIC or MFC names an inhibition level or a share of isolates. Conditions beyond the fields shown may differ between rows. MIC bound comes from a single tested concentration. Percent inhibition refers to the dose given; in toxicity tests it is the harm to the cells. An empty or dashed field is not shown. a–b is a range or a potency band.

smiles,dose,mutations,setting,read-out,strain or isolate,read by,value
O=C(NN=C1CCCCC1)c1ccncc1,-,-,-,MIC99,-,-,0.42 µg/mL
CCCOc1ccc(N=C2SCC(=O)N2c2ccc(OCCC)cc2)cc1,-,-,-,MIC,H37Rv,-,>32 µg/mL
COc1ccc(/C=N/NC(=O)c2cnc3cccc(C(F)(F)F)c3c2NC(CSc2ccccc2)CC(=O)N(C)C)c(F)c1,-,-,-,MIC,H37Rv,resazurin,10 µg/mL
O=C(Nc1ccc(Br)cc1)c1cc(Cl)ccc1OS(=O)(=O)c1ccccc1,-,-,14 d,MIC,H37Rv,-,8 µM
CCCCOC(=O)c1ccc2nccnc2c1,-,-,-,MIC,H37Ra,visual reading,50 µM
CCc1cc(C(C)=O)ccc1OCCCON1C(N)=NC(N)=NC1(C)C,-,Overexpressing DHFR,-,MIC90,H37Rv,resazurin / fluorescence,>2 µM
COc1ccc(/C=N/NC(=O)c2cnc3cc(F)ccc3c2NC(CSc2ccccc2)CC(=O)N(C)C)cc1,-,-,-,MIC,H37Rv,resazurin,10 µg/mL
CC(C)CCOc1ccc(N=c2scc(CCN3CCCCC3)n2-c2ccc(OCCC(C)C)cc2)cc1,-,-,-,MIC,H37Rv,-,24 µg/mL
O=C(CSc1nnc(-c2ccc([N+](=O)[O-])s2)s1)OCc1ccccc1,6.25 µg/mL,-,-,inhibition,H37Rv,resazurin,99%
CCCc1ccc(N=c2scc(C)n2-c2ccc(CCC)cc2)cc1,-,-,-,MIC,H37Rv,-,4 µg/mL
CC1(C)NC(N)N=C(N)N1OCCCOc1ccc2ccccc2c1,-,-,-,MIC90,H37Rv,resazurin / fluorescence,2 µM
O=C(N[C@@H]1COc2nc([N+](=O)[O-])cn2C1)Oc1ccc(OC(F)(F)F)cc1,-,-,-,MIC,H37Rv,low oxygen,>64 µM
CC(C)(C)CC(C)(O)CN(CC(C)(O)CC(C)(C)C)C(=S)S,-,-,-,MIC,INH-r,-,3.1 µg/mL
C[C@H](c1ccccc1)N1CC(=Cc2cccc3ccccc23)[C@]2(ON=C(c3ccc(Cl)cc3)O2)C2(C1)ON=C(c1ccc(Cl)cc1)[C@H]2c1cccc2ccccc12,-,-,-,MIC,MDR-TB,-,0.99 µM
CC1=NN(C(=O)CC(=O)Nc2ccccc2)C(=O)C1N=Nc1ccc(C(=O)O)cc1,-,-,-,MIC bound,H37Rv,resazurin,>6.25 µg/mL
C[C@H](c1ccccc1)N1C/C(=C\c2ccccc2Cl)C(=O)/C(=C/c2ccccc2Cl)C1,-,-,-,MIC,H37Rv,-,13.95 µM
O=C1c2ccccc2C(=O)c2c(NCCNCCO)ccc(O)c21,-,-,-,MIC,H37Rv,BACTEC,6.25 µg/mL
Cc1ccc([C@H]2C(c3ccccc3)=NO[C@@]23CN([C@H](C)c2ccccc2)C/C(=C\c2cccc(C)c2)[C@@]32ON=C(c3ccccc3)O2)cc1,-,-,-,MIC,MDR-TB,-,2.42 µM
NC(=O)c1cnccn1,-,-,-,MIC,H6777 niacin-negative,-,32 µg/mL
CN(C)C(=O)CC(CSc1ccccc1)Nc1c(C(=O)N/N=C/c2cc(F)ccc2O)cnc2cc(F)ccc12,-,-,-,MIC,H37Rv,resazurin,10 µg/mL
CC(C)CCOc1ccc(N=c2scc(C(C)(C)C)n2-c2ccc(OCCC(C)C)cc2)cc1,-,-,-,MIC,H37Rv,-,>125 µg/mL
O=C(Nc1ccc(F)cc1)c1ccc(Cl)cc1OS(=O)(=O)c1ccccc1,-,-,21 d,MIC,H37Rv,-,16 µM
Cc1ccn2c(C(=O)OCc3ccccc3)c(C)nc2c1,-,Resistant to HREKO,-,MIC90,XDR-TB,broth dilution,<0.01 µg/mL
COc1ccc(-n2c(C)nc3ccc(Cl)cc3c2=S)cc1,-,-,-,MIC,My 331/88,-,>62.5 µg/mL
O=C(Nc1cccc(C(F)(F)F)c1)c1ccc(Cl)cc1OS(=O)(=O)c1ccccc1,-,-,14 d,MIC,H37Rv,-,125 µM
Cc1cc(C)nc(Nc2nc3ccccc3[nH]2)n1,6.25 µg/mL,-,-,inhibition,-,resazurin,-1%
Cc1ccc([C@H]2C(c3ccc(Cl)cc3)=NO[C@@]23CN([C@H](C)c2ccccc2)C/C(=C\c2cccc(C)c2)[C@@]32ON=C(c3ccc(Cl)cc3)O2)cc1,-,-,-,MIC,H37Rv,-,8.75 µM
O=C(O)C1=C(CSc2nnnn2CS(=O)(=O)O)CS[C@@H]2[C@H](NC(=O)C(O)c3ccccc3)C(=O)N12,100 µg/mL,-,-,inhibition,8 strains,BACTEC,0%
COc1ccc(/C=N/NC(=O)c2cnc3cc(F)ccc3c2NC(CSc2ccccc2)CC(=O)N(C)C)c(F)c1,-,-,-,MIC,H37Rv,resazurin,5 µg/mL
CC1(C)N=C(N)N=C(N)N1OCCCOc1ccc(Cl)cc1Cl,-,-,-,MIC90,H37Rv,resazurin / fluorescence,0.7 µM
COC(=O)CSc1nnc(-c2ccc([N+](=O)[O-])s2)s1,-,-,-,MIC,H37Rv,resazurin,0.78 µg/mL
CC(=O)OC1C(O[C@H]2CC[C@]34O[C@]35CC[C@]3(C)C(C6(C)CC[C@@H](C(C)(C)O)O6)[C@@H](O)CC3(C)[C@@H]5CC(OC3OC(CO)C(O)C(O)C3O)C4C2(C)C)OCC(O)C1O,-,-,-,MIC,H37Rv,BACTEC,≥12.5 µg/mL
CN(C)C(=O)CC(CSc1ccccc1)Nc1c(C(=O)N/N=C/c2ccccc2F)cnc2cc(F)ccc12,-,-,-,MIC,H37Rv,resazurin,1.25 µg/mL
NCc1ccccc1CC(=O)N[C@@H]1C(=O)N2C(C(=O)O)=C(CSc3nnnn3CC(=O)O)CS[C@H]12,-,-,-,EC50,8 strains,BACTEC,<100 µg/mL
O=C(Nc1ccc(F)cc1)c1cc(Cl)ccc1OS(=O)(=O)c1ccccc1,-,-,21 d,MIC,H37Rv,-,8 µM
C[C@H](c1ccccc1)N1C/C(=C\c2cccc3ccccc23)[C@@]2(ON=C(c3ccc(Cl)cc3)O2)[C@@]2(C1)ON=C(c1ccc(Cl)cc1)[C@@H]2c1cccc2ccccc12,-,-,-,MIC,MDR-TB,-,0.99 µM
C#C/C=C\C[C@H]1O/C(=C(/Br)CC)C/C=C\C[C@H]1Cl,-,-,-,MIC,H37Rv,BACTEC,≥12.5 µg/mL
C[C@H](c1ccccc1)N1C[C@@]2(ON=C(c3ccc(Cl)cc3)[C@H]2c2ccc(Cl)cc2Cl)C2(ON=C(c3ccc(Cl)cc3)O2)[C@]2(C1)ON=C(c1ccc(Cl)cc1)[C@H]2c1ccc(Cl)cc1Cl,-,-,-,MIC,MDR-TB,-,1.6 µM
COc1ccc2cc1-c1cc(ccc1O)C[C@H]1c3cc4c(cc3CCN1C)Oc1c(OC)cc3c(c1O4)[C@H](C2)N(C)CC3,-,-,-,MIC,ETA-R,-,3.1 µg/mL
CCc1ccccc1OCCCON1C(N)=NC(N)=NC1(C)C,-,Overexpressing DHFR,-,MIC90,H37Rv,resazurin / fluorescence,2 µM
O=[N+]([O-])c1ccc(C2=NOC(c3ccc(N4CCN(Cc5ccccc5)CC4)cc3)C2)o1,-,-,-,MIC,HN878,-,0.012 µg/mL
CO[C@H]1/C=C/O[C@@]2(C)Oc3c(C)c(O)c4c(O)c(c(/C=N/N=C/N5CCCCC5)c(O)c4c3C2=O)NC(=O)/C(C)=C\C=C\[C@H](C)[C@H](O)[C@@H](C)[C@@H](O)[C@@H](C)[C@H](OC(C)=O)[C@@H]1C,-,-,-,MIC,H37Rv,-,0.01 µg/mL
CCC(C)CCOc1ccc(N=C2SCC(=O)N2c2ccc(OCCC(C)CC)cc2)cc1,-,-,-,MIC,H37Rv,-,32 µg/mL
C/C(=N\NC(=O)CC(=O)Nc1ccc(C)cc1)c1cc2ccccc2oc1=O,-,-,-,MIC bound,H37Rv,BACTEC,>12.5 µg/mL
C[C@]1(COc2ccc(N3CCC(Oc4ccc(OC(F)(F)F)cc4)CC3)cc2)Cn2cc([N+](=O)[O-])nc2O1,-,-,-,MIC,HN878,-,0.4 µg/mL
COc1ccc(/C=N/NC(=O)c2cnc3cc(F)ccc3c2NC(CSc2ccccc2)CC(=O)N(C)C)cc1O,-,-,-,MIC,H37Rv,resazurin,5 µg/mL
Cc1ccccc1OCCCON1C(N)=NC(N)=NC1(C)C,-,-,-,MIC90,H37Rv,resazurin / fluorescence,0.5 µM
CCCCCCCC/C=N/NC(=O)c1cnc2cc(F)ccc2c1NC(CSc1ccccc1)CC(=O)N(C)C,-,-,-,MIC,H37Rv,resazurin,1.25 µg/mL
CO/N=C(\C(=O)N[C@@H]1C(=O)N2C(C(=O)O)=CCS[C@H]12)c1csc(N)n1,-,-,-,EC50,8 strains,BACTEC,<100 µg/mL
CC1(C)N=C(N)N=C(N)N1OCCCOc1cc(Cl)c(Cl)cc1Cl,-,-,-,MIC90,H37Rv,resazurin / fluorescence,1–2 µM
O=C(NCc1ccc(N2CCN(Cc3ccccc3)CC2)nc1)c1ccc([N+](=O)[O-])o1,-,-,-,MIC,HN878,-,0.05 µg/mL
O=c1c(Cl)c2sc3ccc(Cl)cc3nc-2c2ccccc12,12.5 µg/mL,-,-,inhibition,H37Rv,BACTEC,66%
CCn1cc(C(=O)O)c(=O)c2cc(F)c(N3CCNCC3)nc21,-,-,-,MIC90,-,-,8.3 µg/mL
C=CCOc1ccc(N=C2SCC(=O)N2c2ccc(OCC=C)cc2)cc1,-,-,-,MIC,H37Rv,-,16 µg/mL
NC(=NC1CCC(C2CCC(N)CC2)CC1)C(N)=NC1CCC(C2CCC(N)CC2)CC1,6.25 µg/mL,-,-,inhibition,H37Rv,resazurin,61%
Cc1c(OCC(F)(F)F)ccnc1CSc1nc2ccccc2[nH]1,-,-,clinical isolate,MIC90,-,resazurin,1.06 µM
COc1ccc2c(n1)Sc1c(N)nc(N)nc1N2,-,-,-,MIC bound,H37Rv,BACTEC,>12.5 µg/mL
CO[C@H]1/C=C/O[C@@]2(C)Oc3c(C)c(O)c4c(O)c(cc(O)c4c3C2=O)NC(=O)/C(C)=C\C=C\[C@H](C)[C@H](O)[C@@H](C)[C@@H](O)[C@@H](C)[C@H](OC(C)=O)[C@@H]1C,-,-,-,MIC,H37Rv,-,0.01 µg/mL
CC1=C/C(=C(\c2ccccc2)c2cc(C)c(O)c(CNCC(=O)O)c2)C=C(CNCC(=O)O)C1=O,-,-,-,MIC bound,H37Rv,BACTEC,>12.5 µg/mL
CCCCc1ccc(N2C(=S)c3cc(Cl)ccc3NC2(C)C)cc1,-,-,-,MIC,My 331/88,-,>62.5 µg/mL
COC(=O)/C(=C\c1ccc(/C=C(\C(=O)O)c2ccc(OC)cc2)o1)c1ccccc1,-,-,-,MIC bound,H37Rv,BACTEC,>12.5 µg/mL
C[C@H](c1ccccc1)N1C[C@@]2(ON=C(c3ccc(Cl)cc3)[C@H]2c2ccccc2Br)C2(ON=C(c3ccc(Cl)cc3)O2)[C@]2(C1)ON=C(c1ccc(Cl)cc1)[C@H]2c1ccccc1Br,-,-,-,MIC,H37Rv,-,3.14 µM
Cc1ccc(-n2cc(-c3ccc(Cl)cc3)c3c(NN)ncnc32)cc1,-,-,-,MIC,H37Rv,resazurin,12.5 µg/mL
CC1(C)S[C@@H]2[C@H](NC(=O)[C@H](N)c3ccccc3)C(=O)N2[C@H]1C(=O)O,-,-,-,MIC90,H37Rv,resazurin,160 µg/mL
CCCC1(CN2c3ccccc3Sc3ccccc32)CCN(CC)C1.Cl,-,-,-,MIC bound,H37Rv,BACTEC,≤12.5 µg/mL
CC[C@H]1OC(=O)[C@H](C)[C@@H](O[C@H]2C[C@@](C)(OC)[C@@H](O)[C@H](C)O2)[C@H](C)[C@@H](O[C@@H]2O[C@H](C)C[C@H](N(C)C)[C@H]2O)[C@](C)(OC)C[C@@H](C)C(=O)[C@H](C)[C@@H](O)[C@]1(C)O,-,-,-,MIC50,-,-,>10 µg/mL
O=C1OC(c2ccccc2)=N/C1=C\c1ccc([N+](=O)[O-])cc1,12.5 µg/mL,-,-,inhibition,H37Rv,BACTEC,-6%
Cc1ccc(/C=C2/CN([C@H](C)c3ccccc3)CC3(ON=C(c4ccccc4)[C@H]3c3ccc(C)cc3)[C@@]23ON=C(c2ccccc2)O3)cc1,-,-,-,MIC,H37Rv,-,9.68 µM
O=C1Nc2cnc(Cl)nc2Nc2ccc(Cl)cc21,12.5 µg/mL,-,-,inhibition,H37Rv,BACTEC,0%
CC(C)CCOc1ccc(N=C2SCC(=O)N2c2ccc(OCCC(C)C)cc2)cc1,-,-,-,MIC,H37Rv,-,32 µg/mL
CC(C)=CC(O)C/C(C)=C/CC/C(C)=C/CCC1(C)C(CCCO)/C(=C(\C)C=O)CCC1(C)O,-,-,-,MIC bound,H37Rv,BACTEC,>12.5 µg/mL
CN1CCN(c2cc3c(cc2F)c(=O)c(C(=O)O)cn3-c2ccc(F)cc2)CC1,100 µg/mL,-,-,inhibition,12 strains,BACTEC,100%
CS(=O)(=O)OCCN(CCOS(C)(=O)=O)c1ccc(C=Nc2ccc3oc(=O)ccc3c2)cc1,6.25 µg/mL,-,-,inhibition,H37Rv,resazurin,0%
CC1(C)Nc2ccc(Cl)cc2C(=S)N1c1cccc(Cl)c1,-,-,-,MIC,My 331/88,-,62.5 µg/mL
CN(CCO)/N=N/c1nc[nH]c1C(N)=O,12.5 µg/mL,-,-,inhibition,H37Rv,BACTEC,96%
NC(=O)c1cnccn1,-,-,-,MIC,H37Ra,visual reading,>6500 µM

Repeating the first 8 entries:

smiles,dose,mutations,setting,read-out,strain or isolate,read by,value
O=C(NN=C1CCCCC1)c1ccncc1,-,-,-,MIC99,-,-,0.42 µg/mL
CCCOc1ccc(N=C2SCC(=O)N2c2ccc(OCCC)cc2)cc1,-,-,-,MIC,H37Rv,-,>32 µg/mL
COc1ccc(/C=N/NC(=O)c2cnc3cccc(C(F)(F)F)c3c2NC(CSc2ccccc2)CC(=O)N(C)C)c(F)c1,-,-,-,MIC,H37Rv,resazurin,10 µg/mL
O=C(Nc1ccc(Br)cc1)c1cc(Cl)ccc1OS(=O)(=O)c1ccccc1,-,-,14 d,MIC,H37Rv,-,8 µM
CCCCOC(=O)c1ccc2nccnc2c1,-,-,-,MIC,H37Ra,visual reading,50 µM
CCc1cc(C(C)=O)ccc1OCCCON1C(N)=NC(N)=NC1(C)C,-,Overexpressing DHFR,-,MIC90,H37Rv,resazurin / fluorescence,>2 µM
COc1ccc(/C=N/NC(=O)c2cnc3cc(F)ccc3c2NC(CSc2ccccc2)CC(=O)N(C)C)cc1,-,-,-,MIC,H37Rv,resazurin,10 µg/mL
CC(C)CCOc1ccc(N=c2scc(CCN3CCCCC3)n2-c2ccc(OCCC(C)C)cc2)cc1,-,-,-,MIC,H37Rv,-,24 µg/mL